Compound potency records, mixed from different reports. Data source: NIAID ChemDB in PubChem.

All rows: tests in culture; species: Mycobacterium tuberculosis

A number after MIC or MFC names an inhibition level or a share of isolates.

structure | strain | changes | read by | setting | read-out | dose | result
CC(C)CSc1ccnc(C(N)=S)c1 | H37Rv |  |  |  | MIC |  | 60 µM
COC1CCC(OC)(C(=O)NN)O1.COC1CCC(OC)(C(=O)NN)O1 | H37Rv |  | BACTEC |  | MIC |  | ≥12.5 µg/mL
c1ccc(P(CCc2ccccn2)c2ccccc2)cc1 | H37Rv |  | broth dilution / visual reading | 7 d | MIC99 |  | 160 µM
Fc1ccccc1CNCc1c[nH]c2ccccc12 | H37Ra |  |  |  | MIC |  | 64 µg/mL
CCCCCCSc1ccnc(C(N)=S)c1 | H37Rv |  |  |  | MIC |  | 15 µM
Oc1cccc2cccnc12 | 2 strains |  |  |  | MIC |  | 6 µM
CCn1cc(C(=O)O)c(=O)c2cc(F)c(N3CCNCC3)cc21 | H37Ra |  |  |  | MIC |  | 1 µg/mL
O=[N+]([O-])CC(C[N+](=O)[O-])c1c(-c2ccccc2)[nH]c2ccccc12 | H37Ra |  |  |  | MIC |  | >256 µg/mL
Cc1c(F)c(N2CCNC(C)C2)cc2c1c(=O)c(C(=O)O)cn2C1CC1 | 250 isolates |  |  |  | Mean MIC |  | 0.842 µg/mL
CN(Cc1c[nH]c2ccccc12)Cc1c[nH]c2ccccc12 | H37Ra |  |  |  | MIC |  | 32 µg/mL
N#Cc1c(-c2ccc(F)cc2)nc(N2CCN(c3ccccc3)CC2)[nH]c1=O | H37Ra |  |  |  | MIC |  | 25–50 µg/mL
O=C(NCCCN1c2ccccc2Sc2ccccc21)N1C(=O)/C(=C\c2ccccc2Cl)SC1c1ccccc1Cl | H37Rv |  | agar |  | inhibition | 25 µg/mL | 32%
NNC(=O)c1ccncc1 | Clinical isolate 3 |  |  |  | MIC |  | 0.05 µg/mL
COC(=O)C1=C(c2cc(OC)c(OC)c(OC)c2)OC(c2ccc(OC)c(OC)c2)C1 | H37Rv |  | BACTEC |  | MIC bound |  | >12.5 µg/mL
Nc1ccc(C(=O)O)c(O)c1 | Clinical isolate 1 |  |  |  | MIC |  | 2 µg/mL
CCc1c(CNc2cc(OC)ccc2OC)cnc2nc(N)nc(N)c12 | H37Rv |  |  |  | MIC |  | >12.5 µg/mL
CC1NC(=O)C(NC(=O)OCc2ccccc2)COC(=O)C(C(C)C)NC(=O)CCCCNC1=O | H37Rv |  | resazurin |  | MIC bound |  | >6.25 µg/mL
Cc1c(CN2CCN(C)CC2)cc(-c2ccc(Cl)cc2)n1-c1ccc(Cl)cc1 | 103471 |  |  |  | MIC |  | 0.7 µg/mL
O=C(NCCCN1c2ccccc2Sc2ccccc21)N1C(=O)/C(=C\c2cccc(Cl)c2)SC1c1cccc(Cl)c1 | H37Rv |  | agar |  | inhibition | 25 µg/mL | 36%
CC1(C)Oc2ccc(NC(=O)CCC(N)C(=O)O)cc2O1 | H37Rv |  | BACTEC |  | inhibition | 12.5 µg/mL | 1%
COc1cc(NCc2cnc3nc(N)nc(N)c3c2C)cc(OC)c1OC | H37Rv |  |  |  | MIC |  | >12.5 µg/mL
NC1[C@H]2CN(c3nc4c(cc3F)c(=O)c(C(=O)O)cn4-c3ccc(F)cc3F)C[C@@H]12 | 206 isolates (susceptible) |  |  |  | Mean MIC |  | 29.9 µg/mL
O=CN(Cc1ccccc1)Cc1c[nH]c2ccccc12 | H37Ra |  |  |  | MIC |  | 64 µg/mL
Cc1ccc2c(c1)nc1cc(Nc3ccc(Cl)cc3)c(=NC3CCCCCCC3)cc-1n2-c1ccc(Cl)cc1 | H37Rv (EB-resistant) |  |  |  | MIC |  | 0.1 µg/mL
CN1CCN(c2nc(-c3ccc(F)cc3)c(C#N)c(=O)[nH]2)CC1 | H37Ra |  |  |  | MIC |  | >50 µg/mL
O=C(/N=C/c1cccc(O)c1)NCCCN1c2ccccc2Sc2ccccc21 | H37Rv |  | agar |  | inhibition | 25 µg/mL | 30%
O=C(N/N=C/c1ccc(OCCCCn2cc(COc3ccccc3)nn2)cc1)c1ccncc1 | H37Rv |  |  |  | MIC99 |  | 0.39–0.78 µM
O=C1OCC2C(=O)N3Cc4nc5ccccc5cc4C3OCC12 | H37Rv |  | BACTEC |  | MIC bound |  | >12.5 µg/mL
C[C@H]1COc2c(N3CCN(C)CC3)c(F)cc3c(=O)c(C(=O)O)cn1c23 | 22 strains (rifampicin-susceptible) |  |  |  | MIC50 |  | 0.39 µg/mL
Cc1ccccc1/C=C/C1=NN(C(=N)N)C(c2ccccc2C)C1 | H37Rv |  | resazurin |  | MIC |  | 0.98 µM
FC(F)(F)c1ccc(NC(=S)SCc2ccc(Cl)cc2)cc1 | H37Rv |  | BACTEC |  | inhibition | 128 µg/mL | 100%
O=C(O)/C(=C\c1ccc(C(F)(F)F)cc1)n1nnc2ccccc21 | H37Rv |  |  |  | inhibition | 12.5 µg/mL | 0%
COc1ccc([C@H]2OC(=O)C3C2C(=O)O[C@@H]3c2ccc(OC)cc2)cc1 | H37Rv |  | BACTEC |  | inhibition | 12.5 µg/mL | 0%
CCCc1cc(C(N)=S)ccn1 |  |  |  |  | MIC |  | 0.5–1.5 µg/mL
O=C(/N=C/c1ccccc1[N+](=O)[O-])NCCCN1c2ccccc2Sc2ccccc21 | H37Rv |  | agar |  | inhibition | 50 µg/mL | 66%
NC[C@H]1O[C@H](O[C@H]2[C@H](O)[C@@H](O[C@H]3O[C@H](CO)[C@@H](O)[C@H](N)[C@H]3O)[C@H](N)C[C@@H]2N)[C@H](O)[C@@H](O)[C@@H]1O |  |  |  |  | MIC |  | 2–4 µg/mL
O=C(/N=C/c1ccccc1O)NCCCN1c2ccccc2Sc2ccccc21 | H37Rv |  | agar |  | inhibition | 25 µg/mL | 32%
Cc1ccc(/C=C(\C(N)=O)n2nc3ccccc3n2)cc1 | H37Rv |  |  |  | inhibition | 12.5 µg/mL | 0%
Fc1cc(F)cc(CNCc2c[nH]c3ccccc23)c1 | H37Ra |  |  |  | MIC |  | 64 µg/mL
COc1ccc2ccc3oc([N+](=O)[O-])cc3c2c1 | H37Rv |  | resazurin |  | MIC bound |  | >6.25 µg/mL
c1ccc(CNCc2c[nH]c3ccccc23)cc1 | H37Ra |  |  |  | MIC |  | 32 µg/mL
CCCCCCCCCCCCSc1ccnc(C(N)=S)c1 | H37Rv |  |  |  | MIC |  | 60 µM
Cc1ccc(S(=O)(=O)NNC(=O)c2cccnc2)cc1 | H37Rv |  | BACTEC |  | inhibition | 12.5 µg/mL | 12%
CO[C@H]1/C=C/O[C@@]2(C)Oc3c(C)c(O)c4c(O)c(c(/C=N/N5CCN(C)CC5)c(O)c4c3C2=O)NC(=O)/C(C)=C\C=C\[C@H](C)[C@H](O)[C@@H](C)[C@@H](O)[C@@H](C)[C@H](OC(C)=O)[C@@H]1C | Clinical isolate 2 |  |  |  | MIC |  | 1 µg/mL
COc1cc(/C=C(\C#N)n2nnc3ccccc32)cc(OC)c1OC | H37Rv |  |  |  | EC50 |  | >12.5 µg/mL
CC(=O)NCCSS(=O)(=O)CCCCS(=O)(=O)SCCNC(C)=O | H37Rv |  | BACTEC |  | MIC bound |  | >6.25 µg/mL
CCN=c1cc2n(-c3ccc(C(F)(F)F)cc3)c3ccccc3nc-2cc1Nc1ccc(C(F)(F)F)cc1 | 2218 |  |  | multidrug-resistant | MIC |  | ≤0.06 µg/mL
CCCNc1nc(-c2ccc(N(C)C)cc2)c(C#N)c(=O)[nH]1 | H37Ra |  |  |  | MIC |  | >50 µg/mL
CCCSc1ccnc(C(N)=S)c1 | H37Rv |  |  |  | MIC |  | 125 µM
N#Cc1c(-c2cccnc2)nc(NCc2ccccc2)[nH]c1=O | H37Ra |  |  |  | MIC |  | >50 µg/mL
NC(=O)/C(=C\c1ccc(Cl)cc1)n1nnc2ccccc21 | H37Rv |  |  |  | EC50 |  | >12.5 µg/mL
N[C@@H]1CONC1=O |  |  |  |  | MIC |  | 10–20 µg/mL
N=C(N)N1N=C(/C=C/c2ccc(Cl)cc2)CC1c1ccc(Cl)cc1 | RGH103 | katG S315T isoniazid resistant | resazurin |  | MIC |  | 0.58 µM
COc1cc(/C=C2\N=C(c3cccc(C)c3)OC2=O)ccc1O | H37Rv |  | BACTEC |  | inhibition | 12.5 µg/mL | 54%
N#C/C(=C/c1ccc2ccccc2c1)n1nnc2ccccc21 | H37Rv |  |  |  | EC50 |  | >12.5 µg/mL
CCCCCSc1ccnc(C(N)=S)c1 | H37Rv |  |  |  | MIC |  | 15 µM
Cc1cc2nc3cc(C)c(N)cc3[n+](-c3ccccc3)c2cc1N.[Cl-] | H37Rv |  | BACTEC |  | MIC bound |  | ≤12.5 µg/mL
COc1ccc(-c2nc(N3CCN(c4ccccc4)CC3)[nH]c(=O)c2C#N)cc1 | H37Ra |  |  |  | MIC |  | >50 µg/mL
CC1(C)CC2=C(SC3C=CC=CC3N2)C(=O)C1C(=O)C(N)=O | H37Rv |  | BACTEC |  | MIC bound |  | >12.5 µg/mL
N#C/C(=C/c1cccc2ccccc12)n1nnc2ccccc21 | H37Rv |  |  |  | EC50 |  | >12.5 µg/mL
COc1cc(C(=O)NN=C2c3ccccc3-c3ccccc32)cc(OC)c1OC | H37Rv |  | BACTEC |  | inhibition | 12.5 µg/mL | -25%
CCCCCCCSc1ccnc(C(N)=S)c1 | H37Rv |  |  |  | MIC |  | 15 µM
COc1ccc(OC)c(NCc2cnc3nc(N)nc(N)c3c2C)c1 | H37Rv |  |  |  | MIC |  | 12.5 µg/mL
NC(=O)N=Nc1c2c3ccccc3[nH]c(N3CCC(O)CC3)c-2c2ccccc12 | H37Rv |  | resazurin / fluorescence |  | MIC90 |  | >20 µg/mL
Cc1c(CNc2cccc3c2CCCC3)cnc2nc(N)nc(N)c12 | H37Rv |  |  |  | MIC |  | 12.5 µg/mL
Cc1cc2c(cc1N)C(C)C1(CCC(=O)N2Cc2ccccc2)OCCO1 | H37Rv |  | BACTEC |  | MIC |  | ≥12.5 µg/mL
CO[C@H]1/C=C/O[C@@]2(C)Oc3c(C)c(O)c4c(=O)c(c5oc6cc(N7CCN(CC(C)C)CC7)cc(=O)c6nc5c4c3=C2O)NC(=O)/C(C)=C\C=C\[C@H](C)[C@H](O)[C@@H](C)[C@@H](O)[C@@H](C)[C@H](OC(C)=O)[C@@H]1C | 22 strains (rifampicin-susceptible) |  |  |  | MIC90 |  | ≤0.05 µg/mL
COc1ccc(/C=C(/C#N)n2nc3ccccc3n2)cc1OC | H37Rv |  |  |  | EC50 |  | >12.5 µg/mL
Fc1cccc(CNCCc2c[nH]c3ccccc23)c1 | H37Ra |  |  |  | MIC |  | 64 µg/mL
CN(C)c1ccc(-c2nc(NCc3ccccc3)[nH]c(=O)c2C#N)cc1 | H37Ra |  |  |  | MIC |  | >50 µg/mL
Cc1ccc(/C=N/C(=O)NCCCN2c3ccccc3Sc3ccccc32)cc1 | H37Rv |  | agar |  | inhibition | 50 µg/mL | 38%
NC(Cc1cnc[nH]1)C(=O)NC(CO)C(=O)O | H37Rv |  | BACTEC |  | inhibition | 12.8 µg/mL | 22%
COc1cc(NCc2cnc3nc(N)nc(N)c3c2C)cc(OC)c1 | H37Rv |  |  |  | MIC |  | 12.5 µg/mL
O=C1CC2OCCC3=CN4CCC56c7ccccc7N1C5C2C3CC46 | H37Rv |  | BACTEC |  | inhibition | 12.5 µg/mL | -11%
CC(C)(C)Oc1cccc(NC(=O)NC23CCC4CC(CC2C4)C3)c1 | H37Rv |  |  |  | MIC |  | 0.2 µg/mL
CCN(CC)CCCC(C)Nc1nc(-c2ccc(OC)cc2)c(C#N)c(=O)[nH]1 | H37Ra |  |  |  | MIC |  | >50 µg/mL
NC(=O)CCN1CCCN(CCC(N)=O)CCN(CCC(N)=O)CCCN(CCC(N)=O)CC1 | H37Rv |  | resazurin |  | MIC bound |  | >6.25 µg/mL
O=C(Nc1ccc(I)cc1)NC12CCC3CC(CC1C3)C2 | H37Rv |  |  |  | MIC |  | 0.6 µg/mL
CCC1C[N+]2(C)CCc3cc(OC)c(OC)cc3C2CC1=O | H37Rv |  | BACTEC |  | MIC bound |  | >12.5 µg/mL
COc1cc(/C=C(\C#N)n2nc3ccccc3n2)cc(OC)c1OC | H37Rv |  |  |  | EC50 |  | >12.5 µg/mL
O=C(CO)Nc1nccs1 | H37Rv |  |  |  | MIC |  | >100 µg/mL
Fc1cccc(Cl)c1CNCCc1c[nH]c2ccccc12 | H37Ra |  |  |  | MIC |  | 64 µg/mL
Cc1cn(CCCCCOc2c3ccoc3cc3oc(=O)ccc23)c(=O)[nH]c1=O | H37Rv |  | resazurin |  | MIC bound |  | >6.25 µg/mL
O=C(/N=C/c1ccccc1)NCCCN1c2ccccc2Sc2ccccc21 | H37Rv |  | agar |  | inhibition | 50 µg/mL | 22%
NCC[C@H](O)C(=O)N[C@@H]1C[C@H](N)[C@@H](O[C@H]2O[C@H](CN)[C@@H](O)[C@H](O)[C@H]2O)[C@H](O)[C@H]1O[C@H]1O[C@H](CO)[C@@H](O)[C@H](N)[C@H]1O |  |  |  |  | MIC |  | 2 µg/mL
NC(=S)c1cc(SC2CCCCC2)ccn1 | H37Rv |  |  |  | MIC |  | 60 µM
O=C1CSC(c2ccccc2Cl)N1C(=O)NCCCN1c2ccccc2Sc2ccccc21 | H37Rv |  | agar |  | inhibition | 25 µg/mL | 30%

Percent inhibition refers to the dose given; in toxicity tests it is the harm to the cells. ECn: concentration that inhibits the pathogen or its effect by n%. Blank or dashed fields: not listed here. Lines come from different laboratories, so protocols vary. MIC bound comes from a single tested concentration. Two numbers with a dash give a range or band.